We go through one compound from patent publication US20220390458A1, “FLUORESCENT PROBE AND APPLICATIONS THEREOF” (CENTRE NATIONAL DE LA RECHERCHE SCIENTIFIQUE (CNRS), priority 2019, published 2022).

“And” between values parts separate entries of the source, which are not always exact repeats. Identical values can stand only once.

For data set [1], the system named is influenza virus membranes. The data set is described as follows: Labeling of viral membranes and GP calculation.
Data set [2] relates to HMEC cells. The data set is described as follows: Confocal microscopy labelling of cell membranes and GP determination. It is filed as cell-based, Human.
Data set [3] in a line: DIOLL probe fluorescence-based liposome quantification. The procedure: A POPC solution of known concentration (100 μg.ml^−1) was used as standard. Increasing volumes of the standard solution were diluted with buffer in a 96 well plate (Nunc). The final volume per well was 200 μl and lipid concentrations between 0 and 80 μg.ml^−1 were used. Samples were prepared in parallel to a final volume of 200 μl per well.
A constant volume of DIOLL solution in ethanol (5 μl) was added in each well to obtain a final DIOLL concentration of 2 μM. The volume of ethanol added represented 2.5% of the final volume and had no effect on liposome integrity. The plate was incubated at room temperature for 10 min. Fluorescence emission spectra were recorded between 420 nm and 600 nm for an excitation wavelength of 390 nm with a TECAN InfiniteM200 plate reader. Spectra were recorded at 21° C.
The surface under the spectrum was calculated for each condition using an Excel complementary function, IntegralP (www.fordom.free.fr) which allows one to calculate the integral of a function when discrete data sets are available. Maximum fluorescence intensities or surfaces under the curve were plotted as a function of the lipid concentration to obtain the standard curve. They both show a hyperbolic variation and the equation of the standard curve was obtained using a hyperbolic fit y=ax/(x+b) (SigmaPlot). The calculation of the a and b coefficients allowed us to determine unknown concentrations in the samples. As various volumes were used for the assays, the concentration of the stock liposome solution was presented taking into account various dilution factors. Measurements were performed in triplicates.
For the estimation of the limit of detection (LOD) and of quantification (LOQ), the fluorescence spectra of 2 μM DIOLL in aqueous buffer were recorded in the absence of liposomes and the surface under the curve was calculated to estimate the blank value on 5 independent measurements. LOD and LOQ were calculated as 3 times or 10 times the standard deviation of the blank, respectively.
Sensitivity was estimated from the slope of the linear fit for low liposome concentrations. As the fluorescence intensity is dependent on the instrument used, in this study the inventors estimated that an increase of 100 A.U. in the fluorescence intensity obtained with TECAN InfiniteM200 was significant.
To conclude upon the repeatability of the method, the coefficient of variation (CV) was calculated as the percentage of the standard deviation on the mean of 5 independent measurements. Accuracy was deduced from the difference between the concentrations obtained with the DIOLL-based method and a standard method of phospholipid quantification, in our case the Stewart method.

In the case of `CCCCCCCCCCCC(=O)c1ccc2cc(N(C)CC(O)CO)ccc2c1` (stereo not drawn) [DIOLL, 1-(6-((2,3-dihydroxypropyl)(methyl)amino)naphthalen-2-yl)dodecan-1-one], the GP in data set [1] (21° C.) is 0.315; in data set [1] (37° C.), 0.096. Further, the “labelling of cell membranes” value in data set [2] (HMEC cells incubated 48 h, excitation 405 nm) is reported as “labeled uniformly all cell membranes”. Further, the GP value is −0.14±0.06 in data set [2] (endoplasmic reticulum membranes of HMEC cells), −0.18±0.02 in data set [2] (mitochondria membranes of HMEC cells), −019±0.04 in data set [2] (nucleus membranes of HMEC cells) and 0.05±0.03 in data set [2] (plasma membrane structures of HMEC cells). In addition, the “liposome concentration at which fluorescence seems to reach saturation” value in data set [3] (2 μM DIOLL, POPC liposomes) is recorded as “over 50 μg.ml^−1”. In addition, the “concentration of a POPC liposome solution determined with DIOLL” value in data set [3] (3 replicates) turned out to be 914 ± 56 µg/mL. In data set [3] (POPC liposome solution, replicates), the Repeatability is 6% and 1.2%. For the same compound, the LOD in data set [3] (POPC standard curve, 2 μM DIOLL, 3 times SD of blank) was 0.4 µg/mL. In data set [3] (POPC standard curve, 2 μM DIOLL, 10 times SD of blank), this compound displayed an LOQ of 1.2 µg/mL. The Sensitivity in data set [3] (TECAN InfiniteM200) is 10 000 A.U. Besides, in data set [3] (TECAN InfiniteM200), the “Sensitivity (concentration printed in the same cell)” value was determined as 0.4 µg/mL. In addition, the “slope of the linear part” value in data set [3] (TECAN InfiniteM200) is reported as 10^5 A.U per μg.ml^−1. Further, the “liposome concentration up to which sensitivity was good” value in data set [3] (above it fluorescence reaches a plateau) is “up to 40 μg.ml^−1”. In addition, in data set [3] (same POPC liposome solution), the “Accuracy (difference to Stewart method)” value was 1.2% and 6.0%. Further, in data set [3] (sensitivity limit of TECAN InfiniteM200 100 A.U.), the “detectable variation in liposome concentration” value amounted to 1 ng/mL.
